# Data taken from patent publication US5767096A, “Bromotiacumicin compounds” (Abbott Laboratories, priority 1996, dated 1998).
# Test system: Clostridium perfringes ATCC 13124
# Assay type: cell-based
# Details: anaerobe, ~10^5 organisms per spot, 37° C., ~48 hours
# Method: Fast atom bombardment mass spectra were measured on a Kratos MS-50 mass spectrometer. Ultraviolet spectra were recorded on a Perkin-Elmer Lambda 3B UV-visible spectrophotometer and infrared spectra on a Nicolet model 60SX FT-IR attached to a Nicolet computer. NMR spectra were acquired on either a General Electric GN500 or GN300 spectrometer. […] Rf values reported were acquired on Analtech TLC plates developed with chloroform:methanol (9:1, v:v) and were visualized using ceric sulfate spray reagent. Melting points were determined on a Hoover Unimelt and are reported uncorrected. Minimal inhibitory concentrations were determined by twofold agar dilution. Brain heart infusion agar was used for aerobes and Wilkins-Chalgren agar for anaerobes.
# For primary screening of compounds of the invention against anaerobic bacteria such as Clostridium, minimal inhibitory concentrations (MICs) were determined by the following agar dilution method: Series of two-fold dilutions of the test compounds were added to Wilkins-Chalgren agar. The agar plates were inoculated with approximately 10^5 organisms per spot of each of the organisms to be tested. The inoculated agar plates were then incubated at 37° C. for approximately 48 hours. The MICs were determined as the minimal concentration of test compound (in […]) that inhibited visible growth.
smiles,measurement,value
"CCc1c(Cl)c(O)c(Cl)c(O)c1C(=O)O[C@H]1[C@H](O)[C@H](OC)[C@H](OC/C2=C\C=C\C[C@H](O)/C(C)=C/[C@H](CC)[C@@H](O[C@@H]3OC(C)(C)[C@@H](OC(=O)C(C)C)[C@H](O)[C@@H]3O)/C(C)=C/C(C)=C/C[C@@H]([C@@H](C)O)OC2=O)O[C@@H]1C [Tiacumicin B, tiacumicin B, reference compound]",MIC,0.06 µg/mL
